The values below come from patent US12630523B2, “Isoquinoline derivatives for use as antiviral and antitumour agents” (priority 2021, dated 2026).

The assay relates to cell signaling molecules (4E-BP1, p70 S6 kinase, Akt, PTPN14, p53, PD-L1). The assay is described as follows: Western blot of cell signaling molecules in CaSki cells. To be noted: 10 μM, 4 hours. (In general: Immunoblotting shows a protein as a band on a membrane.)

For the compound `Cc1ccc(CN2C(=O)c3ccccc3[C@H](C(=O)Nc3cccc(N4CCN(C)CC4)c3)[C@@H]2c2ccc(C(F)(F)F)cc2)cc1` [OC246, N-[3-(4-methylpiperazin-1-yl)phenyl]-2-[(4-methylphenyl)methyl]-1-oxo-3-[4-(trifluoromethyl)phenyl]-1,2,3,4-tetrahydroisoquinoline-4-carboxamide], the “phosphor-p70-S6K T389” value is “de-phosphorylated”.
